A mixed list of measured activities; the numbers were collected in NIAID ChemDB.

All rows: whole-cell or culture tests; organism: Rhinovirus; measure: EC50

Neighbouring rows are from separate reports.

smiles,cell line,method,strain,value
CSc1nsc(-c2ccc(OCCCOc3ccccc3)cc2)c1C#N,HELA-OHIO,cytopathic effect,Serotype 41 (group B),>20 µM
CN(C)c1nc(C(F)(F)F)nc2c1ncn2Cc1ccccc1,M-HELA,plaque count,Serotype 19,>8 µM
N#Cc1ccc(Cn2cnc3c(Nc4cccc(F)c4)nc(C(F)(F)F)nc32)cc1,M-HELA,plaque count,Serotype 4,>100 µM
CSc1nsc(-c2ccc(OCCCCOc3ccc([N+](=O)[O-])cc3)cc2)c1C#N,HELA-OHIO,cytopathic effect,Serotype 63 (group B),>0.5 µM
Cc1cc(CCCCCOc2c(Cl)cc(C3=NCCO3)cc2Cl)on1,HeLa,plaque count,TYPE 16,0.048 µg/mL
CCOC(=O)c1ccc(OCCCCOc2ccc(-c3snc(SC)c3C#N)cc2)cc1,HELA-OHIO,cytopathic effect,Serotype 14 (group A),>2 µM
Cc1ccc(Cn2cnc3c(N(C)C)nc(C(F)(F)F)nc32)c(C)c1,M-HELA,plaque count,Serotype 21,>8 µM
CSc1nsc(-c2ccc(OCCCCOc3ccc(C#N)cc3)cc2)c1C#N,HELA-OHIO,cytopathic effect,Serotype 41 (group B),>2 µM
Cc1ccc(Cn2cnc3c(N(C)C)nc(C(F)(F)F)nc32)cc1,M-HELA,plaque count,TYPE 1B,0.03 µM
COc1ccc(-c2snc(SC)c2C#N)cc1,HELA-OHIO,cytopathic effect,Serotype 51 (group B),>12 µM
CCOC(=O)c1ccc(OCCC2CCN(c3ccc(C)nn3)CC2)cc1,KB,neutral red,611-CV35 (ICAM-1 receptor group 59),0.016 µM
CSc1nsc(-c2ccc(OCCCc3ccccc3)cc2)c1C#N,HELA-OHIO,cytopathic effect,Serotype 70 (group A),>20 µM
CSc1nsc(-c2ccc(OS(=O)(=O)c3ccc(C)cc3)cc2)c1C#N,HELA-OHIO,cytopathic effect,Serotype 59 (group B),>25 µM
CSc1nsc(-c2ccc(OCCCOc3ccc(C#N)cc3)cc2)c1C#N,HELA-OHIO,cytopathic effect,Serotype 59 (group B),>2 µM
CN(C)c1nc(C(F)(F)F)nc2c1ncn2Cc1ccc(Cl)c(N)c1,M-HELA,plaque count,Serotype 31,>8 µM
CSc1nsc(-c2ccc(OCc3ccccc3)cc2)c1C#N,HELA-OHIO,cytopathic effect,Serotype 51 (group B),19 µM
Cc1cc(Cn2cnc3c(N(C)C)nc(C(F)(F)F)nc32)ccc1Cl,M-HELA,plaque count,TYPE 1B,0.12 µM
CCOC(=O)/C=C/[C@H](C[C@@H]1CCNC1=O)NC(=O)[C@@H](CC(=O)[C@@H](NC(=O)c1cc(C)on1)C(C)C)Cc1ccc(F)cc1,OHIO HELA-I,cytopathic effect / visual reading,Isolate 33,0.02 µg/mL
COc1ccc(Cn2cnc3c(N(C)C)nc(C(F)(F)F)nc32)cc1C,M-HELA,plaque count,TYPE 1B,0.2 µM
Fc1cccc(Cn2cnc3c(Nc4cccc(F)c4)nc(C(F)(F)F)nc32)c1,M-HELA,plaque count,Serotype 29,12 µM
CSc1nsc(-c2ccc(OCCOc3ccc(C#N)cc3)cc2)c1C#N,HELA-OHIO,cytopathic effect,Serotype 70 (group A),>2 µM
CN(C)c1nc(C(F)(F)F)nc2c1ncn2Cc1ccc(Cl)c(NC=O)c1,M-HELA,plaque count,Serotype 1B,0.56 µM

3 of the rows above, restated:

smiles	cell line	method	strain	value
COc1ccc(-c2snc(SC)c2C#N)cc1	HELA-OHIO	cytopathic effect	Serotype 51 (group B)	>12 µM
CSc1nsc(-c2ccc(OS(=O)(=O)c3ccc(C)cc3)cc2)c1C#N	HELA-OHIO	cytopathic effect	Serotype 59 (group B)	>25 µM
Cc1cc(Cn2cnc3c(N(C)C)nc(C(F)(F)F)nc32)ccc1Cl	M-HELA	plaque count	TYPE 1B	0.12 µM

ECn is the concentration giving n% inhibition of infection, replication or growth.